## Fitness effects across NS2B and the NS3 protease domain of Zika virus

From the data files of Ni et al. 2025, doi:10.1038/s41467-025-63602-z.

The scanned region of Zika virus MR766 is shown below (positions 1-308): NS2B is 2-131, NS3 begins at position 132.
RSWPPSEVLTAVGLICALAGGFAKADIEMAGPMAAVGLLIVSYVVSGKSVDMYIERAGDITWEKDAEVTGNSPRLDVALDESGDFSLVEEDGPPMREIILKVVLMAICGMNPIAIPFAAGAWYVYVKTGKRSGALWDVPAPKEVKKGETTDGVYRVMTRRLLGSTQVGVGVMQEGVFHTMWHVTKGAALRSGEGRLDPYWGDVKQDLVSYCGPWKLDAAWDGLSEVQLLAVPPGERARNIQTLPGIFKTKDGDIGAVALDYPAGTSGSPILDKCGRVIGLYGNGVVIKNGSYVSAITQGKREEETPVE

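Libraries of single mutants were passaged as virus pools on Huh-7.5 cells. Deep sequencing gave the change in frequency of each mutant relative to wild type, averaged over three replicate libraries (two for positions 207-308). The study looked for pockets that tolerate few changes, as a guide for inhibitor design.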

Scale: log2 effect, wild type = 0; the lower, the more harmful to the virus.
Rows are sites, columns the new residue; wt marks the wild-type residue.
Six mutants with high scores were retested singly and none clearly outgrew wild type, so positive values are not proof of better growth.
Positions 1-103, 104-206 and 207-308 were made and measured as separate libraries.
Position 1 still belongs to NS2A. In the paper, -1 or higher counts as tolerated.
Stop codons (*) centre on -7 and mark the level of dead virus.

site	G	A	V	L	I	M	F	W	Y	C	P	S	T	N	Q	D	E	K	R	H	*
I98	-6.81	-4.30	-0.84	-1.41	wt	-2.78	-5.05	-6.04	-6.00	-3.18	-7.39	-5.41	-3.11	-5.79	-5.37	-5.49	-5.32	-6.12	-7.48	-5.05	-7.59
I99	-1.40	-0.19	-0.22	-0.05	wt	-0.39	-0.64	-1.29	-3.60	-0.49	-6.55	-5.05	-1.64	-5.61	-5.59	-5.51	-5.27	-5.62	-6.74	-5.40	-7.59
L100	-2.09	-2.02	-0.76	wt	-1.80	0.19	0.11	-2.52	-1.07	-2.48	-6.91	-4.39	-1.89	-5.71	-5.64	-5.26	-4.97	-5.48	-7.26	-5.23	-6.92
K101	-6.83	-6.92	-7.27	-8.37	-6.86	-6.02	-6.83	-6.25	-6.43	-6.14	-7.09	-7.32	-7.57	-3.76	-6.56	-5.83	-4.90	wt	-1.92	-6.12	-8.33
V102	0.23	-0.67	wt	-0.01	0.39	0.60	0.32	-5.75	-5.83	0.13	-7.67	-1.08	-0.74	-5.45	-6.85	-4.93	-5.14	-6.50	-7.70	-6.16	-8.17
V103	-2.18	-0.59	wt	-1.06	-0.24	-1.01	-0.10	-3.74	-5.86	-0.33	-6.56	-1.23	-1.69	-4.83	-5.27	-5.25	-5.23	-4.85	-6.29	-5.53	-7.07
L104	-6.54	-4.00	-5.41	wt	-4.45	-1.07	-3.41	-6.87	-6.12	-2.23	-4.82	-6.06	-4.65	-5.55	-6.82	-4.96	-5.98	-6.59	-8.25	-6.00	-7.98
M105	-6.77	-6.78	-7.17	-6.32	-5.52	wt	-5.39	-5.97	-5.88	-5.78	-6.11	-7.40	-7.32	-5.78	-6.10	-5.12	-6.06	-6.83	-7.33	-5.54	-7.93
A106	-1.10	wt	-0.61	-1.85	0.20	-0.91	-1.53	-3.32	-4.13	-0.67	-6.28	-1.02	-0.55	-4.94	-5.77	-4.09	-5.36	-5.22	-6.85	-5.60	-6.58
I107	-3.57	-1.53	-0.41	-0.21	wt	-1.04	-2.18	-5.39	-5.24	-0.85	-6.07	-3.00	-2.27	-5.16	-5.12	-4.72	-5.10	-5.36	-6.82	-5.09	-7.03
C108	-3.65	-0.97	-4.86	-7.62	-6.08	-5.51	-6.57	-6.58	-6.42	wt	-7.25	0.27	-2.52	-5.98	-5.87	-5.80	-5.63	-5.62	-6.66	-6.14	-6.34
G109	wt	-6.58	-6.46	-7.03	-5.60	-5.22	-5.57	-5.18	-5.12	-2.34	-6.49	-6.25	-6.45	-5.21	-4.45	-5.03	-4.59	-4.15	-6.44	-5.36	-5.15
M110	-2.91	-1.74	-0.38	0.30	4.21	wt	0.30	0.23	0.33	-0.72	-6.61	-1.53	-0.61	-2.18	-1.69	-3.39	-5.32	-4.07	-3.39	-1.48	-6.39
N111	-5.91	-2.17	-3.17	-2.75	-3.59	-2.55	-1.80	-2.08	-2.36	-2.95	-6.63	0.03	0.19	wt	-1.16	-3.14	-4.00	-4.05	-2.88	0.40	-5.23
P112	-5.77	-6.18	-5.83	-6.98	-4.68	-5.44	-4.23	-5.17	-4.73	-4.75	wt	-5.42	-3.83	-5.05	-3.98	-4.55	-5.08	-5.25	-6.95	-5.11	-5.29

A selection of 38 entries from above:

- I99C -> -0.49
- G109S -> -6.25
- C108A -> -0.97
- L100Y -> -1.07
- A106S -> -1.02
- C108K -> -5.62
- K101E -> -4.90
- V102D -> -4.93
- A106K -> -5.22
- I99K -> -5.62
- I98L -> -1.41
- A106R -> -6.85
- C108S -> 0.27
- M110S -> -1.53
- C108N -> -5.98
- L104R -> -8.25
- M110F -> 0.30
- P112F -> -4.23
- V103G -> -2.18
- M110T -> -0.61
- V102E -> -5.14
- I98Y -> -6.00
- M105I -> -5.52
- K101Q -> -6.56
- P112D -> -4.55
- A106G -> -1.10
- I98* -> -7.59
- C108T -> -2.52
- N111E -> -4.00
- C108H -> -6.14
- I107H -> -5.09
- M105E -> -6.06
- A106P -> -6.28
- M110* -> -6.39
- M110A -> -1.74
- P112M -> -5.44
- P112R -> -6.95
- I98N -> -5.79